According to PMC5358776, “Insight into the mechanism of action of temporin-SHa, a new broad-spectrum antiparasitic and antibacterial agent” (PLoS ONE, 2017):
Where two headings read alike, the source gives them in different places. Where no end group is shown, it is not given here.

Columns and labels:
[1] = tested on: Human THP-1-derived macrophages; experiment: Cytotoxicity, Trypan blue staining
Human erythrocytes = experiment: Hemolytic assay
[2] = IC50 fibroblasts / MICGM Gram-negative strains
[3] = IC50 fibroblasts / MICGM Gram-positive strains
[4] = IC50 fibroblasts / MICGM yeast/fungal strains
[5] = LC50 THP1-derived macrophages / MICGM Gram-negative strains
[6] = LC50 THP1-derived macrophages / MICGM Gram-positive strains
[7] = LC50 THP1-derived macrophages / MICGM yeast/fungal strains
[8] = LC50 human erythrocytes / MICGM Gram-negative strains
[9] = LC50 human erythrocytes / MICGM Gram-positive strains
[10] = LC50 human erythrocytes / MICGM yeast/fungal strains
[11] = IC50 THP1-monocytes / MICGM Gram-negative strains
[12] = IC50 THP1-monocytes / MICGM Gram-positive strains
[13] = IC50 THP1-monocytes / MICGM yeast/fungal strains
[14] = IC50 HepG2 / MICGM Gram-negative strains
[15] = IC50 HepG2 / MICGM Gram-positive strains
[16] = IC50 HepG2 / MICGM yeast/fungal strains
[17] = LC50 rat erythrocytes / MICGM Gram-negative bacteria
[18] = LC50 rat erythrocytes / MICGM Gram-positive bacteria
[19] = LC50 rat erythrocytes / MICGM yeasts/fungi

Substance: FLSGIVGMLGKLF-NH2 [SHa, temporin-SHa]
- Therapeutic index (T.I.) (Human fibroblasts (HFF); [2]): 13.9
- Therapeutic index (T.I.) (Human fibroblasts (HFF); [3]): 33.3
- Therapeutic index (T.I.) (Human fibroblasts (HFF); [4]): 6.4
- Therapeutic index (T.I.) [1, 5]: 4.2
- Therapeutic index (T.I.) [1, 6]: 10
- Therapeutic index (T.I.) [1, 7]: 1.9
- Therapeutic index (T.I.) (Human erythrocytes; [8]): 1.7
- Therapeutic index (T.I.) (Human erythrocytes; [9]): 4.2
- Therapeutic index (T.I.) (Human erythrocytes; [10]): 0.8
- Therapeutic index (T.I.) (Human THP-1 monocytes; [11]): 8.3
- Therapeutic index (T.I.) (Human THP-1 monocytes; [12]): 20
- Therapeutic index (T.I.) (Human THP-1 monocytes; [13]): 3.8
- Therapeutic index (T.I.) (Human HepG2; [14]): 38.9
- Therapeutic index (T.I.) (Human HepG2; [15]): 93.3
- Therapeutic index (T.I.) (Human HepG2; [16]): 18
- Therapeutic index (T.I.) (Rat erythrocytes; [17]): 1.7
- Therapeutic index (T.I.) (Rat erythrocytes; [18]): 4.2
- Therapeutic index (T.I.) (Rat erythrocytes; [19]): 0.8

Substance: FLKGIVGMLGKLF-NH2 [[K^3]SHa, [K^3]temporin-SHa]
- Therapeutic index (T.I.) (Human fibroblasts (HFF); [2]): 52.6
- Therapeutic index (T.I.) (Human fibroblasts (HFF); [3]): 71.4
- Therapeutic index (T.I.) (Human fibroblasts (HFF); [4]): 26
- Therapeutic index (T.I.) [1, 5]: 14.5
- Therapeutic index (T.I.) [1, 6]: 19.6
- Therapeutic index (T.I.) [1, 7]: 7.1
- Therapeutic index (T.I.) (Human erythrocytes; [8]): 13.1
- Therapeutic index (T.I.) (Human erythrocytes; [9]): 17.8
- Therapeutic index (T.I.) (Human erythrocytes; [10]): 6.5
- Therapeutic index (T.I.) (Human THP-1 monocytes; [11]): 12.6
- Therapeutic index (T.I.) (Human THP-1 monocytes; [12]): 17.1
- Therapeutic index (T.I.) (Human THP-1 monocytes; [13]): 6.2
- Therapeutic index (T.I.) (Human HepG2; [14]): 94.2
- Therapeutic index (T.I.) (Human HepG2; [15]): 127.8
- Therapeutic index (T.I.) (Human HepG2; [16]): 46.5
- Therapeutic index (T.I.) (Rat erythrocytes; [17]): 6.8
- Therapeutic index (T.I.) (Rat erythrocytes; [18]): 9.3
- Therapeutic index (T.I.) (Rat erythrocytes; [19]): 3.4
